This series deals with Influenza.

From patent US20070148124A1, “Cellulose and acrylic based polymers and the use thereof for the treatment of infectious diseases” (priority 2004, published 2007) come the findings set out here.

Take “hydroxypropyl methylcellulose trimellitate [HPMCT]”: the “Therapeutic Index (CC50/IC50)” value is recorded as >2.
